According to patent publication US7700727B2, “Compositions and kits for detecting pathogen infection” (Biokit, S.A., priority 2003, dated 2010):

Tested on: anti-Tp antibodies in human syphilis sera
Test: Syphilis hemagglutination assay with GST-Tp17 reagent supplemented with lysozyme
Conditions: for effect of added lysozyme on intensity of hemagglutination: 3 μg lysozyme/1 μg Tp17, 4 borderline human syphilitic sera; for samples showing an improvement in sensitivity of the assay: out of 10 samples tested, 594 units of human lysozyme/μg GST-Tp17

Substance: chicken lysozyme: purified chicken egg white lysozyme (L-6876, Sigma-Aldrich; P00698)
- effect of added lysozyme on intensity of hemagglutination: did not enhance the response

Substance: human lysozyme: human lysozyme (NP_000230); breast milk-derived in Example 8, recombinant (Ventria) in Examples 10 and 16
- effect of added lysozyme on intensity of hemagglutination: improves the intensity of hemagglutination

Substance: natural human breast milk lysozyme: purified natural human breast milk lysozyme (L-6394; Sigma-Aldrich)
- samples showing an improvement in sensitivity of the assay: 6

Substance: recombinant human transgenic rice lysozyme: purified recombinant human lysozyme from transgenic rice (159-53LZ-90P; Ventria Bioscience)
- false positive results (200 syphilis-negative blood bank samples): does not give false positives results
- samples negative without lysozyme that were positive when lysozyme was added (of 19 samples that tested negative, among 34 real positive samples): 14
- samples showing an improvement in sensitivity of the assay: 6
